Data: paper PMC6152089, “Steroid Alkaloids from Holarrhena africana with Strong Activity against Trypanosoma brucei rhodesiense” (Molecules : A Journal of Synthetic Chemistry and Natural …, 2017)
Where “and” joins values, the source holds several entries; their conditions need not be identical. Identical values can stand only once.

Test system: Trypanosoma brucei rhodesiense (bloodstream trypomastigotes, STIB 900 strain)
Assay: In vitro anti-trypanosomal activity against Tbr
Type: cell-based
Conditions: isolated compounds; SI = cytotoxic IC50 (L6)/IC50 Tbr
Experimental: In vitro tests for biological activity of the crude extracts, fractions, sub-fractions and isolated compounds against Trypanosoma brucei rhodesiense (bloodstream trypomastigotes, STIB 900 strain), Trypanosoma cruzi (amastigotes, Tulahuen C4 strain), Leishmania donovani (amastigotes, MHOM-ET-67/L82 strain), Plasmodium falciparum (intraerythrocytic form, NF54 strain) and cytotoxicity test against mammalian L6 cell line from rat skeletal myoblasts were performed according to the established standard protocol. However, only the activity data against Trypanosoma brucei rhodesiense is reported due to the inactivity of the tested substances against other parasites at the concentration tested.

Molecule	SI
CC(=O)[C@H]1CC[C@H]2[C@@H]3CC=C4C[C@@H](N)CC[C@]4(C)[C@H]3CC[C@]12C [Compound 1, 3β-holaphyllamine]	12.6
CC(=O)N[C@H]1CC[C@@]2(C)C(=CC[C@H]3[C@@H]4CC[C@H](C(C)=O)[C@@]4(C)CC[C@@H]32)C1 [Compound 2, holaphyllamine acetamide]	3.2
CN[C@H]1CC[C@@]2(C)C(=CC[C@H]3[C@@H]4CC[C@H](C(C)=O)[C@@]4(C)CC[C@@H]32)C1 [Compound 3, 3β-N-methylholaphyllamine]	33 and 33.2
CC(=O)[C@H]1CC[C@H]2[C@@H]3CC=C4C[C@H](N)CC[C@]4(C)[C@H]3CC[C@]12C [Compound 4, 3α-holaphyllamine]	42.9
C[C@@H]1N=C[C@]23C[C@H](O)[C@H]4[C@@H](CCC5=CC(=O)C=C[C@@]54C)[C@@H]2CC[C@H]13 [Compound 8, holonamine]	7.5
C[C@H]1[C@H]2CC[C@H]3[C@@H]4C=CC5=CC(=O)CC[C@]5(C)[C@H]4CC[C@]23CN1C [Compound 9, cona-4,6-dienin-3-one]	7.4
C[C@H]1[C@H]2CC[C@H]3[C@@H]4C(=O)C=C5C=CCC[C@]5(C)[C@H]4CC[C@]23CN1C [Compound 10, cona-3,5-dienin-7-one]	5.7
C[C@@H]1NC[C@]23CC[C@H]4[C@@H](CC=C5C[C@@H](N(C)C)CC[C@@]54C)[C@@H]2CC[C@H]13 [Compound 11, conessimine]	> 300 and 302
CN[C@H]1CC[C@@]2(C)C(=CC[C@H]3[C@@H]4CC[C@@H]5[C@H](C)N(C)C[C@@]54CC[C@@H]32)C1 [Compound 12, isoconessimine]	168
C[C@H]1[C@H]2CC[C@H]3[C@@H]4CC=C5C[C@@H](N(C)C)CC[C@]5(C)[C@H]4CC[C@]23CN1C [Compound 13, conessine]	146
CN[C@H]1CC[C@@]2(C)C(=CC[C@H]3[C@@H]4CC[C@@H]5[C@H](C)N(C)C[C@@]54[C@H](OC(=O)CC=C(C)C)C[C@@H]32)C1 [Compound 14, holarrhesine]	121
CC(C)=CCC(=O)O[C@@H]1C[C@H]2[C@@H](CC=C3C[C@@H](N(C)C)CC[C@@]32C)[C@@H]2CC[C@@H]3[C@H](C)N(C)C[C@]312 [Compound 15, holarrhetine]	58.9
CN[C@H]1CC[C@@]2(C)C(=CC[C@H]3[C@@H]4CC[C@@H]5[C@H](C)N(C)C[C@@]54[C@H](O)C[C@@H]32)C1 [Compound 16, holarrheline]	22.0
C[C@H]1[C@H]2CC[C@H]3[C@@H]4CC=C5C[C@@H](N(C)C)CC[C@]5(C)[C@H]4C[C@@H](O)[C@]23CN1C [Compound 17, holarrhenine]	6.0
N^3-isopentenyl adenine [Compound 19]	12.2
